Measured values as given in US20050014706A1, “Method of treating tuberculosis” (priority 2003, published 2005).

Assays:
[1] = system: J774.1 macrophage cell line; assay: Cytotoxicity against J774.1 macrophage cell line; format: cell-based, murine; conditions: selectivity index IC50:MIC
VERO cells = assay: Cytotoxicity against VERO cells (MTS, 72 hours); conditions: selectivity index IC50:MIC

Row | Compound | J774 SI ([1]; Table 1a) | Vero SI (VERO cells; Table 1a) | J774 SI ([1]; Table 2a) | Vero SI (VERO cells; Table 2a)
1 | CC[C@H]1OC(=O)[C@H](C)C(OC2CC(C)(OC)[C@@H](O)[C@H](C)O2)[C@H](C)[C@@H](O[C@@H]2O[C@H](C)C[C@H](N(C)C)[C@H]2O)[C@](C)(OC)C[C@@H](C)C(=O)[C@H](C)[C@H]2N(NCCCc3ccnc4ccccc34)C(=O)O[C@]12C (some centres unmarked) [RU66252] | 64.52 | 99.72 | – | –
2 | CC[C@H]1OC(=O)[C@H](C)C(=O)[C@H](C)[C@@H](O[C@@H]2O[C@H](C)C[C@H](N(C)C)[C@H]2O)[C@](C)(OC)C[C@@H](C)C(=NOC2CCCN(C/C=C/c3ccc(-c4ccccc4)cc3)C2)[C@H](C)[C@@H](O)[C@]1(C)O (some centres unmarked) [RU61804] | – | – | 7.8 | 18.24
3 | CC[C@H]1OC(=O)[C@H](C)C(=O)[C@H](C)[C@@H](O[C@@H]2O[C@H](C)C[C@H](N(C)C)[C@H]2O)[C@](C)(OC)C[C@@H](C)C(=O)[C@H](C)[C@H]2N(CCCCn3cnc(-c4cccnc4)c3)C(=O)O[C@]12C [Telithromycin, reference compound] | 2.2 | – | – | –
4 | CC[C@H]1OC(=O)[C@H](C)[C@@H](O[C@H]2C[C@@](C)(OC)[C@@H](O)[C@H](C)O2)[C@H](C)[C@@H](O[C@@H]2O[C@H](C)C[C@H](N(C)C)[C@H]2O)[C@](C)(OC)C[C@@H](C)C(=O)[C@H](C)[C@H]2N(CCCCn3cnc(-c4cccnc4)c3)C(=O)O[C@]12C [RU69874] | 154.18 | 70.95 | – | –
5 | CC[C@H]1OC(=O)[C@@](C)(F)C(=O)[C@H](C)[C@@H](O[C@@H]2O[C@H](C)C[C@H](N(C)C)[C@H]2O)[C@](C)(OCC#Cc2cc(-c3cnc4ccccc4c3)no2)C[C@@H](C)C(=O)[C@H](C)[C@H]2NC(=O)O[C@@]21C [Compound A323348] | 40.18 | 63.92 | – | –
6 | CC[C@H]1OC(=O)[C@H](C)[C@@H](O[C@H]2C[C@@](C)(OC)[C@@H](O)[C@H](C)O2)[C@H](C)[C@@H](O[C@@H]2O[C@H](C)C[C@H](N(C)C)[C@H]2O)[C@](C)(O)C[C@@H](C)/C(=N\OCOCc2ccccc2)[C@H](C)[C@@H](O)[C@]1(C)O [RU29558] | – | – | – | 4.02
7 | CCCCCCCCCCN1CCCC(O/N=C2\[C@H](C)C[C@@](C)(OC)[C@H](O[C@@H]3O[C@H](C)C[C@H](N(C)C)[C@H]3O)[C@@H](C)C(=O)[C@@H](C)C(=O)O[C@H](CC)[C@@](C)(O)[C@H](O)[C@H]2C)C1 (some centres unmarked) [RU60887] | – | – | 37.6 | 220.64
8 | CC[C@H]1OC(=O)[C@H](C)[C@@H](O[C@H]2C[C@@](C)(OC)[C@@H](O)[C@H](C)O2)[C@H](C)[C@@H](O[C@@H]2O[C@H](C)C[C@H](N(C)C)[C@H]2O)[C@](C)(OC)C[C@@H](C)C(=O)[C@H](C)[C@@H](O)[C@]1(C)O [Clarithromycin, reference compound] | – | – | – | 5.12
9 | cethromycin [ABT773, reference compound] | 34.1 | >34 | – | –
10 | CC[C@H]1OC(=O)[C@H](C)[C@@H](O[C@H]2CC(C)(OC)[C@@H](O)[C@H](C)O2)[C@H](C)[C@@H](O[C@@H]2O[C@H](C)C[C@H](N(C)C)[C@H]2O)[C@](C)(OC)C[C@@H](C)C(=O)[C@H](C)[C@H]2N(CCCCc3ccnc4ccccc34)C(=O)O[C@]12C (some centres unmarked) [RU66080] | 11.14 | 18.41 | – | –

The source's definition of the ratio is not given here.
